Measurements: patent publication US20160228506A1, “Compositions and Formulations for Prevention and Reduction of Tumorigenesis, Cancer Cell Proliferation and Invasion, and Methods of Production and Use Thereof in Cancer Treatment” (PRONUTRIA, INC., priority 2013, published 2016)

Test: Anti-FLAG ELISA of protein secretion in Aspergillus niger
Details: for ELISA 10 ml shake flask: 10 ml minimal medium; for ELISA 10 ml shake flask / ELISA 1 litre shake flask: three days; for ELISA 1 litre shake flask: one litre minimal media; for ELISA 1st MTP: primary transformants, 96 deep well, 72 hrs, culture supernatant; for ELISA 2nd MTP: retest after single spore purification

B1: SEQID-00354: nutritive polypeptide (protein)
chain: MSLSNKLTLDKLDVKGKRVVMRVDFNVPMKNNQITNNQRIKAAVPSIKYCLDSGAKSVVLMSHLGRPDGVPMPDKYSLQPVAVELKSLLGKDVLFLKDCVGPEVEKACADPAAGSVILLENLRFHVEEEGKGKDASGNKVKAEPTKIEAFRASLSKLGDVYVNDAFGTAHRAHSSMVGVNLPKKAGGFLMKKELNYFAKALESPERPFLAILGGAKVADKIQLISNMLDKVNEMIIGGGMAFTFLKVLNNMEIGTSLFDEEGSKIVKDLMSKADKNGVKITLPVDFVTADKFDENAKTGQATVASGIPVGWMGLDCGPESSKKYAEAVARAKQIVWNGPVGVFEWEAFARGTKALMDEVVKATSRGCITIIGGGDTATCCAKWNTEDKVSHVSTGGGASLELLEGKVLPGVDALSSV
modifications: Ovis aries
notes: nutritive polypeptide
  ELISA 10 ml shake flask: 0.9 to 7.8 mg/L
  ELISA 1 litre shake flask: 0 to 1.2 mg/L
  ELISA 1st MTP: 9.1 to 120.4 mg/L
  ELISA 2nd MTP: 0 to 47.2 mg/L

B2: SEQID-00298 (protein, listed as Bos taurus)
chain: MGLSDGEWQLVLNAWGKVEADVAGHGQEVLIRLFTGHPETLEKFDKFKHLKTEAEMKASEDLKKHGNTVLTALGGILKKKGHHEAEVKHLAESHANKHKIPVKYLEFISDAIIHVLHAKHPSDFGADAQAAMSKALELFRNDMAAQYKVLGFHG
  ELISA 10 ml shake flask: 1.3 to 79.4 mg/L
  ELISA 1 litre shake flask: 93.9 to 224.3 mg/L
  ELISA 1st MTP: 66.0 to 215.4 mg/L
  ELISA 2nd MTP: 5.2 to 119.5 mg/L
